From patent US20120207760A1, “Compositions and Methods for the Therapy and Diagnosis of Influenza” (THERACLONE SCIENCES, published 2012)

B1: TCN-557 (5081_A04) (antibody, V domains shown)
VH: QVQLVQSGAEVKKPGASVKVSCKASGHTFTGYYIHWVRQAPGQGLEWMGWINPDSGATSSAQNFQGRVTMTGDTSSSTAYMELSRLSFDDTAVYYCARVLFTSPFDFWGEGTLVTVSS
VL: QAVVTQEPSLAVSPGGTVTLTCGSSTGAVTRGHYPYWFQQKPGQAPRALIYDSAGNRHSWTPARFSGSLLGGKAALTLSGAQPEDEAEYYCLLSYSGVWVFGGGTKLTVL
B2: TCN-539 (5056_A08) (antibody, V domains shown)
VH: QVQLVESGGGVVQPGRSLRLSCAASEITFITYAMHWVRQAPGKGLEWVALISDDGSNKFYADSVKGRFTISRDNSKNTLYLQMNSLRAEDTAAYYCAREGVYFDSGTYRGYFDYWGQETLVTVSS
VL: EIVLTQSPATLSLSPGERATLSCRASQSVSSYLAWYQQKPGQAPRLLIYDASNRATGIPARFSGSGSGTDFTLTISSLEPEDFAVYYCQQRSHWPPITFGQGTRLEIK
B3: TCN-552 (5249_I23) (antibody, V domains shown)
VH: QVQVVQSGAEVKKPGSSVRVSCQASGGTFMNYAIIWVRRAPGQGLEWMGGIIPVFPTPNYAQMFQGRVTISTDESRSTSFLELTNLRYEDTAVYYCARRIYHGGNSGFDFWGQGTLVTVSS
VL: EIVLTQSPATLSLSPGERATLSCRASQSVGNYLAWYQQKPGQAPRLLIYDSSNRAPGIPARFSGSGSGTDFTLTISSLAPEDFAVYYCQQRSKWPPMYSFGHGTKLEIK
B4: TCN-540 (5060_F05) (antibody, V domains shown)
VH: QVQLVQSGGGVVQPGRSLRLSCAASGFTFSSYAMHWVRQAPGKGLEWVAIISYDGNDQYYTDSVKGRFTISRDSSKVYLQMHRLRPEDTAVYYCAKEFETSGYFHGSFDYWGQGILVTVSS
VL: QSALTQPASVSGSPGQSITISCTGTSSDVGGYNYVSWYQQHPGKAPKLLIYEVTNWPSGVSNRFSGSKSGNTASLTISGLQAEDEADYYCSSYAGSSTWVFGGGTRVTVL
B5: TCN-546 (5089_L08) (antibody, V domains shown)
VH: QVQLQQWGAGLLKPSETLSLTCGVYGGSLSDYYWSWIRQPPGKGLEWIGEINHSGGTNYNPSLKRRVTISVDTSKKQFSLKMNSVTAADTAVYYCARGTDPDTEVYCRAGNCAAFDFWGQGTLVTVSS
VL: EIVLTQSPGTLSLSPGERATLSCRASHFVIGRAVAWYQQKPGQAPRLLIYGASSRATGIPDRFSGSGSGTDFTLTISRLETEDFAVFYCQHYGSSPRYAFGQGTKLEIK
B6: TCN-551 (5243_D01) (antibody, V domains shown)
VH: EVQLVQSGSEVKKPGESLKISCKGSGYSFSNYWIGWVRHMPGKGLEWMGIIYPGDSDTRYSPSFQGQVTMSADKSSSTVYLQWSSLKASDTAIYYCARRGGHSFGYGSGGDTHSEFDSWGQGTLVTVSS
VL: QSVLTQSPSVSAAPGQKVTISCSGSDSNIGDYFVCWYQHLPGKPPQLLIYENNKRPSGIPDRFSGSKSGTSATLGITGIQTGDEADYYCATWDGSLSAWVFGGGTKLTVL
B7: TCN-543 (5081_G23) (antibody, V domains shown)
VH: QVHLVQSGAEVRKPGDSVKVSCKTSGYTFSTYPVAWVRQVPGQGLEWMGWISTYNGNTNFAQNFQGRVTLTTDTTTNTAYMEVRSLKFDDTAVYYCARVEGSYRDFWNNQNRFDPWGQGTLVTVSS
VL: SYVLTQPPSVSVAPGQTARISCGGSNIGGKSVHWYQQKPGQAPVLVVYDDSGRPSGIPERFSGSNSGDTATLTISRVEAGDEADYFCQVWDNFGGVFGTGTKVTVL
B8: TCN-547 (5092_F11) (antibody, V domains shown)
VH: QVQLQESGPGLVKPSQTLSLTCTVSGDSISSVDHYWSWIRQHPVKGLEWIGFMYYSASTYYNPSLKSRVTISTDTSKNQFSLRLSSVTAADTAVYYCARGTCAGDCSLHYYYYGLDVWGQGRTVTVSS
VL: DIQMTQSPSSLSASVGDRVTITCRASQSISSYLNWYQHKPGKAPKVLMYAVSILQSGVPSRFSGSGSGADFTLTISSLQPEDFATYYCQQSYSSPLTFGGGTKVEIK
B9: TCN-554 (5277_M05) (antibody, V domains shown)
VH: QVQLVQSGADLKKPGASVKVSCKASGYTFTDYYIHWVRQAPGQGLEWMGWINPESGDTKYAQKFQGRVTMTRDTSITTAYMELGRLRSDDTAVYYCARDVSTTWSWFAPWGQGTLVTVSS
VL: DIVMTQSPDSLAVSLGERATINCRSSQSIFHNSNNENYLAWYQQKPGQPPKLLIYWASTRESGVPDRFSGSGSGTDFTLTISSLQAEDVAVYFCQQYYNAPLTFGGGTKVEIK
B10: TCN-558 (5248_H10b) (antibody, V domains shown)
VH: QVQLVQSGSEVKKPGTSVKVSCTASGSVFTNYGISWVRQAPGQGLEWMGGIIPLFGAAKYAQKFQGRVTITADESTKTVYMELSRLTSKDTAIYFCAKAPRVYEYYFDQWGQGTPVTVSS
VL: EIVMTQFPATLSVSPGERVTLSCRASQSVSNNLAWYQQKPGQPPRLLIYDASTRATGVPAKFSGTGSGTEFTLSISSLQSEDFAVYYCQQYHNWPPSYSFGLGTKLEIK
B11: TCN-540 (5060_F05) (antibody, V domains shown)
VH: B4 VH
VL: B4 VL
B12: TCN-531 (5091_H13) (antibody, V domains shown)
VH: EVQLVESGGDLVQPGRSLKLSCTGSGFTFGDYGVTWVRQAPGKGLEWVGFIRTRPWGGTADTAASVKGRFTISRDDSKSLAYLQMNSLKTEDTAVYYCCRDAPPNVEVASMTNWYFDLWGRGTLVTVSS
VL: DIQLTQSPSSLSASVGDRVTITCRASQGILNCLAWYQQKPGKVPNLLMYAASTLQSGVPSRFSGSGFGTDFTLTISSLQPEDVATYYCQTYGGVSTFGGGTKVEIR
B13: TCN-522 (3212_I12) (antibody, V domains shown)
VH: QVQLQQWGAGLLKPSETLSLTCTVSGGSLTDYSWNWIRQPPGKGLEWIGDTLHNGYTNYNPSLRGRVSISIDTSKNQVSLRLTSVTAADTALYYCARGSGGYGGFDYFGKLRTWDFWGQGTLVTVSS
VL: DIQLTQSPSSLSASVGDRVTITCRASQGIRNDLGWYQQKPGNAPKRLIFGASSLQSGVPSRFSGSGSGTEFTLTISSLQPEDFATYYCLQHNSYPYTFGQGTKLEIK

Molecular target: recombinant soluble homotrimeric HA of A/Anhui/1/05 - H5N1 (Influenza A virus A/Anhui/1/2005 (H5N1))
Experiment: not given

First: B1
Second: B2
The “Trimeric HA Binding: RLU” value of the first is higher: 20000 RLU for the first, 3240 RLU for the second.

Going from B3 to B4, the “Trimeric HA Binding: RLU” value falls from 9010 RLU to 2190 RLU.

First: B5
Second: B6
The “Trimeric HA Binding: RLU” value of the first is higher: 33300 RLU for the first, 2640 RLU for the second.

For B7, the “Trimeric HA Binding: RLU” value was 2630 RLU.

Molecular target: recombinant soluble homotrimeric HA of A/Netherlands/219/03 - H7N7 (Influenza A virus A/Netherlands/219/03 …)
Experiment: not given

Going from B8 to B9, the “Trimeric HA Binding: RLU” value rises from 2090 RLU to 4520 RLU.

Going from B1 to B4, the “Trimeric HA Binding: RLU” value falls from 53700 RLU to 4390 RLU.

Going from B7 to B10, the “Trimeric HA Binding: RLU” value falls from 12900 RLU to 5840 RLU.

Molecular target: recombinant soluble homotrimeric HA of A/Indonesia/5/05 (H5N1) (Influenza A virus A/Indonesia/5/05 …)
Experiment: not given

B11 was tested, and the “Trimeric HA Binding: RLU” value was 31 RLU.

Molecular target: recombinant soluble homotrimeric HA of A/Anhui/1/05 (H5N1) (Influenza A virus A/Anhui/1/05 (H5N1))
Experiment: not given

Going from B11 to B12, the “Trimeric HA Binding: RLU” value rises from 25 RLU to 3610 RLU.

Molecular target: recombinant soluble homotrimeric HA of A/Netherlands/219/03 (H7N7) (Influenza A virus A/Netherlands/219/03 …)
Experiment: not given

In the case of B11, the “Trimeric HA Binding: RLU” value is reported as 381 RLU.

Molecular target: recombinant soluble homotrimeric HA of A/Wisconsin/67/05 (H3N2) (Influenza A virus A/Wisconsin/67/05 …)
Experiment: not given

Compared with B11, B12 is higher in “Trimeric HA Binding: RLU” value: 728 RLU for the first, 7090 RLU for the second.

Molecular target: hemagglutinin (HA) of influenza A/Wisconsin/67/05 H3N2 (Influenza A virus A/Wisconsin/67/2005 …)
Experiment: ELISA, inactivated whole virions coated; transfection supernatant set 2

B13 gave an OD450 of 0.07 OD450.

Molecular target: recombinant soluble homotrimeric HA of A/northern shoveler/California/HKWF115/07 (Influenza A virus A/northern …)
Experiment: microarray, BCC supernatant IgG, trimeric HA

With B11 the “Trimeric HA Binding: RLU” value was 131 RLU.

Molecular target: recombinant soluble homotrimeric HA of A/California/4/09 (H1N1) (Influenza A virus A/California/4/09 …)
Experiment: microarray, BCC supernatant IgG, trimeric HA

For B11, the “Trimeric HA Binding: RLU” value was 57 RLU.

Molecular target: recombinant soluble homotrimeric HA of A/chicken/Vietnam/NCVD-016/08 (H5N1) (Influenza A virus …)
Experiment: microarray, BCC supernatant IgG, trimeric HA

With B11 the “Trimeric HA Binding: RLU” value was 70 RLU.

Molecular target: recombinant soluble homotrimeric HA of A/Egypt/3300-NAMRU3/08 (H5N1) (Influenza A virus …)
Experiment: microarray, BCC supernatant IgG, trimeric HA

For B11, the “Trimeric HA Binding: RLU” value was 1970 RLU.

Molecular target: recombinant soluble homotrimeric HA of A/Hong Kong/2108/03 (H9N2) (Influenza A virus A/Hong Kong/2108/03 …)
Experiment: microarray, BCC supernatant IgG, trimeric HA

B11 was tested, and the “Trimeric HA Binding: RLU” value was 22 RLU.

Molecular target: recombinant soluble homotrimeric HA of A/duck/Yangzhou/02/05 (H8N4) (Influenza A virus …)
Experiment: microarray, BCC supernatant IgG, trimeric HA

Going from B11 to B12, the “Trimeric HA Binding: RLU” value rises from 117 RLU to 3120 RLU.

Molecular target: recombinant soluble homotrimeric HA of A/duck/Yangzhou/02/2005 - H8N4 (Influenza A virus …)
Experiment: micro-array; captured IgG, V5-tagged trimeric HA

First: B8
Second: B9
The “Trimeric HA Binding: RLU” value of the first is lower: 3340 RLU for the first, 5810 RLU for the second.

Compared with B1, B3 is lower in “Trimeric HA Binding: RLU” value: 24000 RLU for the first, 15900 RLU for the second.

Going from B4 to B5, the “Trimeric HA Binding: RLU” value rises from 6080 RLU to 11400 RLU.

B7 was tested, and the “Trimeric HA Binding: RLU” value was 13100 RLU.

Molecular target: recombinant soluble homotrimeric HA of A/Hong Kong/156/97 - H5N1 (Influenza A virus A/Hong Kong/156/97 …)
Experiment: micro-array; captured IgG, V5-tagged trimeric HA

Going from B1 to B2, the “Trimeric HA Binding: RLU” value falls from 27100 RLU to 1450 RLU.

Compared with B3, B4 is lower in “Trimeric HA Binding: RLU” value: 36300 RLU for the first, 1550 RLU for the second.

First: B5
Second: B6
The “Trimeric HA Binding: RLU” value of the first is higher: 1240 RLU for the first, 792 RLU for the second.

With B7 the “Trimeric HA Binding: RLU” value was 1430 RLU.

Molecular target: recombinant soluble homotrimeric HA of A/chicken/Vietnam/NCVD-016/08 - H5N1 (Influenza A virus …)
Experiment: micro-array; captured IgG, V5-tagged trimeric HA

Compared with B8, B9 is higher in “Trimeric HA Binding: RLU” value: 1320 RLU for the first, 2710 RLU for the second.

Compared with B1, B2 is lower in “Trimeric HA Binding: RLU” value: 23300 RLU for the first, 3500 RLU for the second.

Going from B3 to B4, the “Trimeric HA Binding: RLU” value falls from 34500 RLU to 1510 RLU.

Compared with B5, B7 is higher in “Trimeric HA Binding: RLU” value: 2940 RLU for the first, 5880 RLU for the second.

In the case of B10, the “Trimeric HA Binding: RLU” value is reported as 33400 RLU.

Molecular target: recombinant soluble homotrimeric HA of A/Egypt/3300-NAMRU3/08 - H5N1 (Influenza A virus …)
Experiment: micro-array; captured IgG, V5-tagged trimeric HA

Compared with B8, B3 is higher in “Trimeric HA Binding: RLU” value: 16800 RLU for the first, 21200 RLU for the second.

First: B4
Second: B5
The “Trimeric HA Binding: RLU” value of the first is lower: 15600 RLU for the first, 53000 RLU for the second.

For B7, the “Trimeric HA Binding: RLU” value was 17600 RLU.

Molecular target: recombinant soluble homotrimeric HA of A/northern shoveler/California/HKWF115/2007 - H6N1 (Influenza A virus A/northern …)
Experiment: micro-array; captured IgG, V5-tagged trimeric HA

Going from B8 to B1, the “Trimeric HA Binding: RLU” value rises from 2620 RLU to 49600 RLU.

Going from B3 to B4, the “Trimeric HA Binding: RLU” value falls from 43900 RLU to 2460 RLU.

Compared with B5, B7 is higher in “Trimeric HA Binding: RLU” value: 2430 RLU for the first, 2510 RLU for the second.

In the case of B10, the “Trimeric HA Binding: RLU” value is reported as 29400 RLU.
